Measurements as given in US20040076622A1, “Local production and/or delivery of anti-cancer agents by stromal cell precursors” (Board of Regents, The University of Texas System, priority 2002, published 2004).

Test system: CD34+ CML stem cells
Assay: Growth and viability of CD34 enriched CML stem cells (trypan blue)
Type: cell-based, human
Settings: 1000 U Intron A, or coculture on induced MSC

## Intron A: pharmacy grade recombinant IFN-α (Intron A, Plough Schering)
  Growth and viability of CD34+ CML stem cells: equally effective at reducing growth and viability
